Experimental data published in US20230218743A1 (IMMUNITYBIO, published 2023).

Target: T1, SARS-CoV-2 Spike receptor binding domain, wild-type (SARS-CoV-2, UniProt P0DTC2 319-541)
T1 construct: domain: RBD
Test: Octet, IgG1 on AHC biosensor

B1: N-612-004 (antibody, V domains shown)
VH: EVQLVESGGGLVQPGGSLRLSCAASGFTFSSYYMHWVRQAPGKGLEWVSAISGSGGYTYYADSVKGRFTISRDNSKNTLYLQMNSLRAEDTAVYYCARDRDHAYDWGFDVWGQGTLVTVSS
VL: DIQMTQSPSSLSASVGDRVTITCQASQDISNYLNWYQQKPGKAPKLLIYDASNLETGVPSRFSGSGSGTDFTFTISSLQPEDIATYYCQQWADWPLTFGQGTKVEIK
Does B1 bind?
Result: no binding (tested: 2x dilution series starting at 100 nM)
